Laboratory results: ChEMBL document CHEMBL4118102 (J Med Chem, 2018)

System: Influenza A virus
Assay: Antiviral activity against Influenza A virus (A/NWS/G70C(H1N9)) infected in MDCK cells assessed as reduction in plaque formation measured after 3 days post infection by neutral red staining-based assay

For CC(=O)N[C@@H]1[C@@H](O)[C@@H](F)[C@](F)(C(=O)O)O[C@H]1C[C@H](O)CO, which EC50 is on record?
The EC50 was 10 µM.

CC(=O)N[C@@H]1C[C@@H](F)[C@](F)(C(=O)O)O[C@H]1[C@H](O)[C@H](O)CO was tested. Which EC50 did it give?
Its EC50 is 1 to 10 µM.

CC(=O)N[C@@H]1[C@@H](O)[C@@H](F)[C@](F)(C(=O)O)O[C@H]1[C@H](O)[C@H](O)CO was tested. Which EC50 did it give?
Its EC50 is 1 to 10 µM.

Which EC50 does the source give for CC(=O)N[C@@H]1[C@@H](O)[C@@H](F)[C@](F)(C(=O)O)O[C@H]1[C@H](O)CCO here?
The EC50 was 100 µM.

Which EC50 does the source give for CC(=O)N[C@@H]1[C@@H](O)[C@@H](F)[C@](F)(C(=O)O)O[C@H]1[C@H](O)[C@@H](C)O here?
The EC50 was 100 µM.
